A short description of the data set: general procedure: Boc solid-phase peptide synthesis; MBHA resin, 100-180 mesh, 1% DVB, loading 0.7-1.0 mmol/g (Midwest Biotech); DEPBT/DIEA single couplings; DIC for acylation. Particulars: whole synthesis; for final HPLC purity: analytical HPLC, UV 214 or 220 nm, scale of the general procedure 0.2 mmole.

Regarding “HaibQGTFTSDYSKYLDERAAQDFVQWLLDGGPSSGAPPPSC-amide”, the “final HPLC purity” value stood at 95% purity. Further, where the note is “scale 0.2 mmole”, the isolated mass was determined as 79 mg.
As to “HaibQGTFTSDYSKYLDERAAQDFVQWLLDGGPSSGAPPPSK(Cys(SH) γE-C16)G-amide”, the “final HPLC purity” value is recorded as “HPLC purity of 90%+”.

The values above are taken from patent US9868772B2 (INDIANA UNIVERSITY RESEARCH AND TECHNOLOGY CORPORATION, priority 2012, dated 2018).
